Pooled drug test results. Numbers come from NIAID ChemDB, via PubChem.

Shared fields: tests on isolated targets; agent: HIV-1; target: Reverse transcriptase

Fold resistance has wild type as its base.

smiles,strain,read by,measure,changes,dose,result
CC(C)(C#Cc1ccc(NC(=O)CSc2nnnn2-c2cc(C(F)(F)F)ccc2Cl)c(Cl)c1)NC(=O)c1ncccn1,WT,PicoGreen / fluorescence,IC50,-,-,<1 µM
Cc1ccc2c(c1)NC(=O)c1cc(Cl)nnc1O2,-,ELISA,inhibition,-,33 µM,8%
O=C(CSc1nnnn1-c1ccc(C2CC2)cc1Cl)Nc1ccc(C(=O)NCc2ccc[n+]([O-])c2)cc1Cl,-,PicoGreen / fluorescence,IC50,RT-K103 Y181C,-,<1 µM
CCN1c2ncc(CCOc3ccc(/C=C(\C)C(=O)O)c4ccccc34)cc2C(=O)N(C)c2ccc(F)nc21,-,nucleotide incorporation / radiometric,fold resistance,RT-K103N Y181C,-,1–10
O=C1NC(c2c[nH]c3ccccc23)=C/C1=C1\C(=O)NC2C=CC=CC12,-,RT activity / ELISA,inhibition,-,1500 µM,20.5%
CC(C)(C#Cc1ccc(NC(=O)CSc2nnc(C3CC3)n2-c2ccc(C3CC3)cc2Cl)c(Cl)c1)C(=O)O,WT,PicoGreen / fluorescence,IC50,-,-,<1 µM
CCN1c2ncc(CCOc3ccc(C(=O)N4CCC(C(=O)O)CC4)cc3C)cc2C(=O)N(C)c2cccnc21,IIIB,nucleotide incorporation / radiometric,IC50,-,-,<0.05 µM
COc1ccc2c(c1)N(CC(C)C)C(=O)c1ccnnc1O2,-,ELISA,inhibition,-,330 µM,40%
CCN1c2ncc(CCOc3ccc(-c4ccc[n+]([O-])c4C)cc3C)cc2C(=O)N(C)c2cccnc21,IIIB,nucleotide incorporation / radiometric,IC50,RT-K103N Y181C,-,<0.05 µM
c1ccc2c(c1)CCN(c1nn3c(-c4cscn4)nnc3c3ccccc13)C2,KER2008,RT activity / fluorescence,IC90,-,-,2.73 µM
CC(C)(C#Cc1ccc(NC(=O)CSc2nnnn2-c2ccc(C(C)(C)C)cc2Cl)c(Cl)c1)OCC(=O)N1CCCC1,WT,PicoGreen / fluorescence,IC50,-,-,<1 µM
FC(F)(F)c1nnc2c3ccccc3c(N3CCc4ccccc4C3)nn12,KER2008,RT activity / fluorescence,IC90,-,-,1.51 µM
CCc1cc(CCc2nc3ccccc3o2)c(=O)[nH]c1C,-,nucleotide incorporation,fold resistance,RT-K103N Y181C Y188C,-,>3000
Cc1cc(C)c(-n2nnnc2SCC(=O)Nc2ccc(-c3ccc(C(C)(C)C(=O)O)cc3)cc2Cl)c(Cl)c1,-,PicoGreen / fluorescence,IC50,RT-K103 Y181C,-,<1 µM
CCN1c2ncc(CCOc3ccc(CC(=O)O)c4ccccc34)cc2C(=O)N(C)c2cccnc21,-,nucleotide incorporation / radiometric,fold resistance,RT-V106A,-,>10
CCN1c2ncc(CCOc3ccc(C(=O)c4ccc(C(=O)O)cc4)cc3C)cc2C(=O)N(C)c2cccnc21,IIIB,nucleotide incorporation / radiometric,IC50,-,-,<0.05 µM
CCN1c2ncc(CCOc3ccc(C(=O)O)c4c3CCCC4)cc2C(=O)N(C)c2ccc(OC)nc21,-,nucleotide incorporation / radiometric,fold resistance,RT-V106A,-,>10
Nc1ccc2c(c1)CN(c1nn3c(-c4cccs4)nnc3c3ccccc13)CC2,KER2008,RT activity / fluorescence,IC90,-,-,7.75 µM
CCN1c2ncc(CCOc3ccc(N(CC(=O)O)C(C)=O)cc3C)cc2C(=O)N(C)c2cccnc21,IIIB,nucleotide incorporation / radiometric,IC50,RT-K103N Y181C,-,>0.1 µM
O=c1cc(Cc2ccccc2)nc(NCCCCO)[nH]1,-,-,Ki,-,-,410 µM
Cc1cc(C)cc(S(=O)(=O)c2c(C(N)=O)[nH]c3ccc(Cl)c(F)c23)c1,-,RT activity / nucleotide incorporation,Ki,Y181C,-,8.4 µM
Oc1ccc2c(c1)CN(c1nn3c(C4CC4)nnc3c3ccccc13)CC2,IIIB,RT activity / fluorescence,IC90,-,-,2.7 µM
CCNC(=O)N1CCc2c(OCCc3cnc4c(c3)C(=O)N(C)c3cccnc3N4CC)ccc(C(=O)O)c2C1,-,nucleotide incorporation / radiometric,fold resistance,RT-Y188L,-,>10
COc1ccc2c(c1)CN(c1nn3c(C(C)C)nnc3c3ccccc13)CC2,KER2008,RT activity / fluorescence,IC90,-,-,53.7 µM
NCCCCNc1nc(Cc2ccccc2)cc(=O)[nH]1,-,-,fold resistance,RT-Y188L,-,>14.3
CCOC(=O)CN1C(=O)c2ccnnc2Oc2c(C)cc(C)cc21,-,ELISA,inhibition,-,330 µM,55%
CC(C)(C#Cc1ccc(NC(=O)CSc2nnnn2-c2cc(C(F)(F)F)ccc2Cl)c(Cl)c1)NC(=O)C1CC1,-,PicoGreen / fluorescence,IC50,RT-K103 Y181C,-,<1 µM
CCN1c2ncc(CCOc3ccc(CC(=O)O)c4c3CCCC4)cc2C(=O)N(C)c2cccnc21,-,nucleotide incorporation / radiometric,fold resistance,RT-K103N Y181C,-,1–10
CNC(=O)COC(C)(C)C#Cc1ccc(NC(=O)CSc2nnnn2-c2ccc(C(C)(C)C)cc2Cl)c(Cl)c1,-,PicoGreen / fluorescence,IC50,RT-K103 Y181C,-,<1 µM
Cc1nnc2c3ccccc3c(N3CCc4ncccc4C3)nn12,KER2008,RT activity / fluorescence,IC90,-,-,2.63 µM
CN(C)CCCNC(=O)C(C)(C)C#Cc1ccc(NC(=O)CSc2nnnn2-c2ccc(CC3CC3)cc2Cl)c(Cl)c1,WT,PicoGreen / fluorescence,IC50,-,-,<1 µM
Cc1ccc2c(c1)N(CCC(C)C)C(=O)c1ccnnc1O2,-,ELISA,inhibition,-,33 µM,20%
CC(C)(C#Cc1ccc(NC(=O)CSc2nnnn2-c2ccc(C3CC3)cc2Cl)c(Cl)c1)NC(=O)CN1CCN(CCn2cccc2)CC1,-,PicoGreen / fluorescence,IC50,RT-K103 Y181C,-,<1 µM
CCN1c2ncc(CCOc3ccc(CCC(=O)O)c4ccccc34)cc2C(=O)Nc2c(C)cc(Cl)nc21,-,nucleotide incorporation / radiometric,fold resistance,RT-K103N Y181C,-,1–10
Cc1nnc(SCC(=O)Nc2ccc(-c3ccc(OCCN4CCCCC4)cc3)cc2Cl)n1-c1ccc(C2CC2)cc1Cl,WT,PicoGreen / fluorescence,IC50,-,-,<1 µM
CCN1c2ncc(CCOc3ccc(C(=O)NS(=O)(=O)c4ccccc4)cc3C)cc2C(=O)N(C)c2cccnc21,IIIB,nucleotide incorporation / radiometric,fold resistance,RT-K103N Y181C,-,>2
CC(C)(C#Cc1ccc(NC(=O)CSc2nnnn2-c2ccc(C3CC3)cc2Cl)c(Cl)c1)NC(=O)C1(C(=O)O)CC1,-,PicoGreen / fluorescence,IC50,RT-K103 Y181C,-,<1 µM
Cc1nnc2c3ccccc3c(N3CCc4c(F)cccc4C3)nn12,IIIB,RT activity / fluorescence,IC90,-,-,12 µM
CC(C)(C#Cc1ccc(NC(=O)CSc2nnnn2-c2ccc(C3CC3)cc2Cl)c(Cl)c1)NCc1ccccc1O,-,PicoGreen / fluorescence,IC50,RT-K103 Y181C,-,<1 µM
CCN1c2ncc(CCOc3ccc(-c4ccc(C(=O)O)c[n+]4[O-])cc3C)cc2C(=O)N(C)c2cccnc21,IIIB,nucleotide incorporation / radiometric,IC50,-,-,<0.05 µM
CC(C)(C#Cc1ccc(NC(=O)CSc2nnnn2-c2ccc(C3CC3)cc2Cl)c(Cl)c1)C(=O)NCCCN1CCCC1=O,-,PicoGreen / fluorescence,IC50,RT-K103 Y181C,-,<1 µM
Cc1cc(C)cc(S(=O)(=O)c2c(C(=O)NCCn3cccc3)[nH]c3ccc(Cl)c(F)c23)c1,-,RT activity / nucleotide incorporation,Ki,WT,-,0.018 µM
CN(C)S(=O)(=O)NC(=O)C(C)(C)C#Cc1ccc(NC(=O)CSc2nnnn2-c2ccc(C3CC3)cc2Cl)c(Cl)c1,-,PicoGreen / fluorescence,IC50,RT-K103 Y181C,-,<1 µM
CCN1c2ncc(CCOc3ccc(-c4cccc(C(=O)O)c4)cc3C)cc2C(=O)N(C)c2cccnc21,IIIB,nucleotide incorporation / radiometric,IC50,-,-,<0.05 µM
CC(C)(C#Cc1ccc(NC(=O)CSc2nnnn2-c2cc(CC3CC3)ccc2Cl)c(Cl)c1)C(=O)O,WT,PicoGreen / fluorescence,IC50,-,-,<1 µM
Cc1c(Cc2ccccc2)nc(NCCCCN)[nH]c1=O,-,-,Ki,RT-V106A,-,>1000 µM

For reference, 4 entries again:

CCN1c2ncc(CCOc3ccc(C(=O)O)c4c3CCCC4)cc2C(=O)N(C)c2ccc(OC)nc21 ; read by: nucleotide incorporation / radiometric ; measure: fold resistance ; changes: RT-V106A ; result: >10
CC(C)(C#Cc1ccc(NC(=O)CSc2nnc(C3CC3)n2-c2ccc(C3CC3)cc2Cl)c(Cl)c1)C(=O)O ; strain: WT ; read by: PicoGreen / fluorescence ; measure: IC50 ; result: <1 µM
CC(C)(C#Cc1ccc(NC(=O)CSc2nnnn2-c2ccc(C3CC3)cc2Cl)c(Cl)c1)C(=O)NCCCN1CCCC1=O ; read by: PicoGreen / fluorescence ; measure: IC50 ; changes: RT-K103 Y181C ; result: <1 µM
Nc1ccc2c(c1)CN(c1nn3c(-c4cccs4)nnc3c3ccccc13)CC2 ; strain: KER2008 ; read by: RT activity / fluorescence ; measure: IC90 ; result: 7.75 µM

Conditions beyond the fields shown may differ between rows. ICn is the concentration giving n% inhibition. a–b is a range or a potency band. Blank or dashed fields: not listed here. Percent inhibition refers to the dose given; in toxicity tests it is the harm to the cells.